Compound potency records, mixed from different reports. Data source: NIAID ChemDB in PubChem.

All rows: target-level tests; agent: HIV-1; target: Protease; method: fluorescence; endpoint: IC50

Rows are shuffled and stem from different studies. Blank or dashed fields: not listed here. ICn is the concentration giving n% inhibition.

compound,setting,result
COCCNC(=O)[C@@H](NC(=O)[C@H](Cc1ccccc1)C[C@H](O)[C@H](Cc1ccccc1)NC(=O)OC(C)(C)C)C(C)C,-,0.002 µM
COC(=O)[C@@H]1CCCN1C(=O)C(=O)C(Cc1ccccc1)NC(=O)OCc1ccccc1.COC(=O)[C@@H]1CCCN1C(=O)C(=O)C(Cc1ccccc1)NC(=O)OCc1ccccc1,-,3.18 µM
CCCC[C@H](NC(=O)[C@@H](NC(=O)c1cnc2ccccc2n1)[C@@H](C)CC)C(=O)CC(Cc1ccc2ccccc2c1)C(=O)N[C@@H](CCC(N)=O)C(N)=O,-,7.98 µM
CC(C)CC(=O)N1C[C@@H](O)[C@@H](Cc2ccccc2)N(Cc2ccc(N)cc2)C(=O)N1Cc1ccc(N)cc1,pH 4.5,<0.001 µM
COC(=O)[C@@H](NC(=O)[C@@H](NC(=O)C[C@H](O)[C@H](CC(C)C)NC(=O)[C@@H](NC(=O)[C@H](Cc1c[nH]c2ccccc12)NC(=O)OCc1ccccc1)C(C)C)C(C)C)C(C)C,-,0.3 µM
N/C(=N/O)c1cccc(CN2C(=O)N(Cc3ccc4[nH]ncc4c3)N(C(=O)CCc3ccccc3)C[C@@H](O)[C@H]2Cc2ccccc2)c1,pH 7.0,<0.0005 µM
CC[C@H](C)[C@H](NC(=O)C[C@H](O)[C@H](CC(C)C)NC(=O)[C@@H](NC(=O)[C@H](Cc1ccc(O)cc1)NC(=O)OCc1ccccc1)C(C)C)C(=O)N[C@@H](Cc1ccccc1)C(=O)OC,-,0.1 µM
CC(C)(C)OC(=O)N[C@H](CN[C@@H](Cc1ccccc1)C(=O)N[C@@H](CCC(=O)O)C(=O)N[C@@H](Cc1ccccc1)C(N)=O)Cc1ccccc1,pH 5.0,0.012 µM
COc1ccc(C[C@H](C[C@H](O)[C@H](Cc2ccccc2)NC(=O)OC(C)(C)C)C(=O)N[C@H](C(=O)N[C@@H](Cc2ccccc2)C(=O)N2CCOCC2)C(C)C)cc1OC,-,0.007 µM
CC(C)[C@H](NC(=O)N(C)CCc1ccccn1)C(=O)N[C@@H](Cc1ccccc1)[C@@H]1O[C@@H]1[C@H](Cc1ccccc1)NC(=O)[C@@H](NC(=O)N(C)CCc1ccccn1)C(C)C,-,>1000 µg/mL
CC(=O)Nc1ccc(S(=O)(=O)N(CC(C)C)C[C@@H](O)[C@H](Cc2ccccc2)NC(=O)[C@H](C)CS(C)(=O)=O)cc1,-,0.022 µM
CC(C)[C@H](NC(=O)[C@H](Cc1cccc2ccccc12)NC(=O)CCN1CCOCC1)C(=O)N[C@@H](Cc1ccccc1)[C@H](O)C(=O)N1CSC[C@H]1C(=O)NC(C)(C)C,-,0.0011 µM
CC(=O)NC(=O)[C@H](Cc1c[nH]c2ccccc12)NC(=O)[C@@H](NC(=O)[C@@H]1CCCN1C[C@@H](O)[C@H](Cc1ccccc1)NC(=O)[C@@H](NC(=O)[C@H](Cc1c[nH]c2ccccc12)NC(C)=O)C(C)C)C(C)C,-,0.00006 µM
CCCC[C@H](NC(=O)[C@@H](NC(=O)[C@@H](NC(=O)c1cnc2ccccc2n1)[C@@H](C)O)[C@@H](C)CC)C(=O)CC(Cc1ccc2ccccc2c1)C(=O)N[C@@H](CCC(N)=O)C(N)=O,-,1.11 µM
O=C(N[C@@H](Cn1ccnc1)C(=O)N[C@@H](Cc1ccccc1)[C@@H]1O[C@@H]1[C@H](Cc1ccccc1)NC(=O)[C@H](Cn1ccnc1)NC(=O)OCc1ccccc1)OCc1ccccc1,-,0.0695 µg/mL
CN(C(=O)[C@H](Cc1cccc2ccccc12)NC(=O)CN1CCOCC1)[C@@H](Cc1nccs1)C(=O)N[C@@H](Cc1ccccc1)[C@H](O)C(=O)N1CSC[C@H]1C(=O)NC(C)(C)C,-,0.0071 µM
CCCCC(CC(O)[C@H](CCCC)NC(=O)[C@@H](NC(=O)[C@@H](NC(=O)c1ccccc1N)[C@@H](C)O)[C@@H](C)CC)C(=O)N[C@@H](CCC(N)=O)C(=O)N[C@@H](CCCN=C(N)N)C(N)=O,-,0.038 µM
COCCNC(=O)[C@@H](NC(=O)[C@H](Cc1ccc2c(c1)OCO2)C[C@H](O)[C@H](Cc1ccccc1)NC(=O)OC(C)(C)C)C(C)C,-,<0.0005 µM
CC(=O)N[C@@H](Cc1c[nH]c2ccccc12)C(=O)N[C@H](C(=O)N[C@@H](CC(C)C)[C@@H](O)CC(=O)N[C@@H](CC(C)C)C(=O)N[C@@H](Cc1ccccc1)C(N)=O)C(C)C,-,0.02 µM
CCCC[C@H](NC(=O)[C@@H](NC(=O)[C@@H](NC(=O)c1ccc2ccccc2n1)[C@@H](C)O)[C@@H](C)CC)C(O)CC(Cc1ccc2ccccc2c1)C(=O)N[C@@H](CCC(N)=O)C(=O)N[C@@H](CCCN=C(N)N)C(N)=O,-,0.037 µM
COc1cc(CN2C(=O)N(Cc3ccc(N)c(OC)c3)N(C(=O)CCc3ccccc3)C[C@@H](O)[C@H]2Cc2ccccc2)ccc1N,pH 7.0,<0.0005 µM
C[C@H](CS(C)(=O)=O)C(=O)N[C@@H](Cc1ccccc1)[C@H](O)CN1C[C@H]2CCCC[C@H]2C[C@H]1C(=O)NC(C)(C)C,-,0.002 µM
COC(=O)C[C@H](O)[C@H](CC(C)C)NC(=O)[C@H](C)NC(=O)C[C@H](O)[C@H](CC(C)C)NC(=O)[C@@H](NC(=O)[C@H](Cc1c[nH]c2ccccc12)NC(=O)OCc1ccccc1)C(C)C,-,0.1 µM
CC(C)[C@H](NC(=O)OCc1ccccn1)C(=O)N[C@@H](CCc1ccccc1)[C@@H]1O[C@@H]1[C@H](CCc1ccccc1)NC(=O)[C@@H](NC(=O)OCc1ccccn1)C(C)C,-,>1000 µg/mL
CC(C)[C@H](NC(=O)[C@H](Cc1cccc2ccccc12)NC(=O)CN1CCOCC1)C(=O)N[C@@H](Cc1ccccc1)[C@H](O)C(=O)N1CSC[C@H]1C(=O)NC(C)(C)C,-,0.001 µM
CC(C)C[C@H](NC(=O)[C@@H](NC(=O)CCCNC(=O)[C@H](Cc1ccccc1)NC(=O)[C@H](CCC(=O)O)NC(=O)[C@H](Cc1ccccc1)NC[C@H](Cc1ccccc1)NC(=O)OC(C)(C)C)[C@@H](C)O)C(=O)N[C@@H](CC(N)=O)C(=O)N[C@@H](Cc1ccccc1)C(=O)O,pH 5.0,0.019 µM
CC(C)[C@H](NC(=O)[C@H](Cc1ccccc1)C[C@H](O)[C@H](Cc1ccccc1)NC(=O)OC(C)(C)C)C(=O)N[C@@H](Cc1ccccc1)C(=O)N1CCOCC1,-,0.009 µM

The last 3 rows once more:

| compound | setting | result |
|---|---|---|
| CC(C)[C@H](NC(=O)[C@H](Cc1cccc2ccccc12)NC(=O)CN1CCOCC1)C(=O)N[C@@H](Cc1ccccc1)[C@H](O)C(=O)N1CSC[C@H]1C(=O)NC(C)(C)C | - | 0.001 µM |
| CC(C)C[C@H](NC(=O)[C@@H](NC(=O)CCCNC(=O)[C@H](Cc1ccccc1)NC(=O)[C@H](CCC(=O)O)NC(=O)[C@H](Cc1ccccc1)NC[C@H](Cc1ccccc1)NC(=O)OC(C)(C)C)[C@@H](C)O)C(=O)N[C@@H](CC(N)=O)C(=O)N[C@@H](Cc1ccccc1)C(=O)O | pH 5.0 | 0.019 µM |
| CC(C)[C@H](NC(=O)[C@H](Cc1ccccc1)C[C@H](O)[C@H](Cc1ccccc1)NC(=O)OC(C)(C)C)C(=O)N[C@@H](Cc1ccccc1)C(=O)N1CCOCC1 | - | 0.009 µM |